Test results published in PMC9152305, “Structural and biochemical mechanism for increased infectivity and immune evasion of Omicron BA.2 variant compared to BA.1 and their possible mouse origins” (2022).

How the values were obtained:
[1] = biological target: human ACE2 N-terminal peptidase domain (aa 19-615), monomeric (human) (UniProt Q9BYF1); test: BLI
[2] = biological target: mouse ACE2 N-terminal peptidase domain (aa 19-615) (mouse) (UniProt Q8R0I0); test: BLI
[3] = biological target: mouse ACE2 N-terminal peptidase domain (aa 19-615) (mouse) (UniProt Q8R0I0); test: cryo-EM structure

In the case of “SARS-CoV-2 Omicron BA.1 spike extracellular domain trimer (domain or fragment)”, the Kd [1] is reported as 6.4 nM, the Kd [2] is reported as 9.1 nM and the stoichiometry N (mACE2 per spike trimer) [3] is reported as 1 and 2.

Values joined by “and” are separate entries in the source; they are usually repeats but may differ in a detail not shown here. Equal entries are not always repeated.
